A mixed list of measured activities; the numbers were collected in NIAID ChemDB.

Shared fields: growth or infection tests; agent: Cryptococcus neoformans; read-out: MIC

Rows are shuffled and stem from different studies.

{"smiles": "N#CC1=C(N)OC2=C(CSc3ccccc32)C1c1cccc2ccccc12", "strain or isolate": "93/V", "value": "25 µg/mL"}
{"smiles": "COC1CC2CCC(C)C(O)(O2)C(=O)C(=O)N2CCCCC2C(=O)OC(C(C)CC2CCC(O)C(OC)C2)CC(=O)C(C)/C=C(\\C)C(O)C(OC)C(=O)C(C)C[C@](C)(N(O)C(=O)NN2CCCCC2)/C=C/C=C/C=C/1C", "strain or isolate": "FRR1", "value": ">100 µg/mL"}
{"smiles": "Oc1ccccc1C=Nc1ccccc1O", "strain or isolate": "ATCC 28957", "read by": "broth dilution", "value": "4 µg/mL"}
{"smiles": "OC(Cn1cncn1)(Cn1nnnc1CCN1CCN(c2cccc(Cl)c2)CC1)c1ccc(F)cc1F", "strain or isolate": "LA314", "value": ">16 µg/mL"}
{"smiles": "O=[N+]([O-])c1ccc(C=Nc2ccccc2O)cc1", "strain or isolate": "F-10", "read by": "broth dilution", "value": "11.3 µg/mL"}
{"smiles": "COc1ccccc1N1CCN(CCc2nnn(CC(O)(Cn3cncn3)c3ccc(F)cc3F)n2)CC1", "strain or isolate": "LA314", "value": ">8 µg/mL"}
{"smiles": "C[C@@H](n1ncn(-c2ccc(OCC(F)(F)C(F)F)cc2)c1=O)[C@](O)(Cn1cncn1)c1ccc(F)cc1F", "strain or isolate": "TIMM1740", "value": "0.13 µg/mL"}
{"smiles": "O=C1/C(=C/c2ccc(O)c(O)c2)CCc2ccccc21", "strain or isolate": "Farwania", "value": "100 µg/mL"}
{"smiles": "CCCCCOc1ccc(-c2cc(-c3ccc(C(=O)N[C@H]4C[C@@H](O)[C@@H](O)NC(=O)[C@@H]5[C@@H](O)[C@@H](C)CN5C(=O)[C@H]([C@H](O)CC(N)=O)NC(=O)[C@H]([C@H](O)[C@@H](O)c5ccc(O)c(OS(=O)(=O)O)c5)NC(=O)[C@@H]5C[C@@H](O)CN5C(=O)[C@H]([C@@H](C)O)NC4=O)cc3)no2)cc1", "strain or isolate": "FMR 8401", "value": "64 µg/mL"}
{"smiles": "CC(Cn1ccnc1)c1ccc(F)cc1", "value": "100 µg/mL"}
{"smiles": "O=[N+]([O-])c1ccc(N2CCN(CCc3nnn(CC(O)(Cn4cncn4)c4ccc(F)cc4F)n3)CC2)cc1", "strain or isolate": "LA314", "value": "8 µg/mL"}
{"smiles": "OCC1c2ccccc2SC1c1ccc2c(c1)OCO2", "strain or isolate": "Farwania", "value": "12.5 µg/mL"}
{"smiles": "C[C@H](n1nnc(CCN2CCN(c3ccccn3)CC2)n1)[C@](O)(Cn1cncn1)c1ccc(F)cc1F", "strain or isolate": "LA314", "value": "8 µg/mL"}
{"smiles": "COC1CC2CCC(C)C(O)(O2)C(O)C(O)N2CCCCC2C(=O)OC(C(C)CC2CCC(O)C(OC)C2)CC(=O)C(C)/C=C(\\C)C(O)C(OC)C(=O)C(C)CC(C)/C=C/C=C/C=C/1C", "strain or isolate": "TOR1-1", "value": ">100 µg/mL"}
{"smiles": "COc1cc(O)c2c(c1)C(=O)c1c(cc3c(c1O)-c1c(cc(C)c(C(=O)NC(C)C(=O)O)c1O)[C@H](OC1OC(C)C(N(C)C)C(OC4OCC(O)C(O)C4O)C1O)[C@H]3O)C2=O", "strain or isolate": "CS-01", "value": "1.6 µg/mL"}
{"smiles": "COc1ccccc1/C=C1\\COc2ccccc2C1=O", "strain or isolate": "25", "value": "25 µg/mL"}
{"smiles": "C[C@@H]1[C@H](O)[C@@H](C)/C=C/C=C/C=C/C=C/C=C/C=C/C=C/[C@H](O[C@@H]2O[C@H](C)[C@@H](O)[C@H](N)[C@@H]2O)C[C@@H]2O[C@](O)(C[C@@H](O)C[C@@H](O)[C@H](O)CC[C@@H](O)C[C@@H](O)CC(=O)O[C@H]1C)C[C@H](O)[C@H]2C(=O)O", "strain or isolate": "Clinical isolate (IM 000319)", "read by": "broth dilution", "value": "0.13 µg/mL"}
{"smiles": "Cc1noc(NS(=O)(=O)c2ccc(N)cc2)c1C", "strain or isolate": "IFM 49624", "value": "64 µg/mL"}
{"smiles": "Cc1ccccc1C(Cc1ccc(Cl)cc1Cl)Cn1ccnc1", "value": "10 µg/mL"}
{"smiles": "CCC(C)CC(C)CCCCCCCCC(=O)N[C@H]1C[C@@H](O)[C@H](NCCN)NC(=O)[C@@H]2[C@@H](O)CCN2C(=O)[C@H]([C@H](O)CCN)NC(=O)[C@H]([C@H](O)[C@@H](O)c2ccc(O)cc2)NC(=O)[C@@H]2C[C@@H](O)CN2C(=O)[C@H]([C@@H](C)O)NC1=O", "strain or isolate": "ATCC90112", "read by": "broth dilution", "value": "16 µg/mL"}
{"smiles": "C[C@@H](N1CCN(c2ccc(OC(F)(F)F)cc2)C1=O)C(O)(Cn1cncn1)c1ccc(F)cc1F", "strain or isolate": "TIMM1855", "value": "0.06 µg/mL"}
{"smiles": "CCCCCC(Cn1ccnc1)c1ccc(Cl)cc1Cl", "value": "10 µg/mL"}
{"smiles": "Cc1nnc(NS(=O)(=O)c2ccc(N)cc2)s1", "strain or isolate": "IFM 51976", "value": "≥256 µg/mL"}
{"smiles": "Clc1ccc(CC(Cn2ccnc2)c2ccc(Cl)cc2Cl)c(Cl)c1", "value": "<1 µg/mL"}
{"smiles": "COc1ccc2c(c1)C1=C(CS2)C(c2ccc3c(c2)OCO3)C(C#N)=C(N)O1", "strain or isolate": "Farwania", "value": "6 µg/mL"}
{"smiles": "COc1cc(NS(=O)(=O)c2ccc(N)cc2)ncn1", "strain or isolate": "IFM 40215", "value": "≥256 µg/mL"}
{"smiles": "COc1ccc(/C=C2\\CS(=O)(=O)c3ccccc3C2=O)cc1", "strain or isolate": "Farwania", "value": "25 µg/mL"}
{"smiles": "COc1ccc(C2Sc3ccccc3C2CO)c(O)c1", "strain or isolate": "Isolate 25", "value": "12.5 µg/mL"}
{"smiles": "C[C@@H](n1ccn(-c2ccc(F)cc2)c1=O)C(O)(Cn1cncn1)c1ccc(F)cc1F", "strain or isolate": "TIMM1855", "value": "0.5 µg/mL"}
{"smiles": "COc1cc(O)c2c(c1)C(=O)c1c(cc3c(c1O)-c1c(cc(C)c(C(=O)NCC(=O)O)c1O)[C@H](O[C@@H]1O[C@H](C)[C@H](N)[C@H](O[C@@H]4OC[C@@H](O)[C@H](O)[C@H]4O)[C@H]1O)[C@H]3O)C2=O", "strain or isolate": "D49", "value": "0.8 µg/mL"}
{"smiles": "Cc1ccc(/C=C2\\CCc3ccccc3C2=O)cc1", "strain or isolate": "Farwania", "value": "100 µg/mL"}
{"smiles": "CCOC(=O)c1c(C)nc(NCCCCNc2ccnc3cc(Cl)ccc23)nc1-c1ccccc1", "strain or isolate": "ATCC 24067", "value": "5.7 µg/mL"}
{"smiles": "CCCCCCCC(Cn1ccnc1)c1ccc(Br)cc1", "value": "<1 µg/mL"}
{"smiles": "CCOc1nc2c(c(-c3ccc4ccccc4c3)c1C#N)CSc1ccc(Cl)cc1-2", "strain or isolate": "25", "value": "100 µg/mL"}
{"smiles": "C[C@@H](n1cnc2cc(Cl)ccc2c1=O)[C@](O)(Cn1cncn1)c1ccc(F)cc1F", "strain or isolate": "Isolate H99", "value": "0.0195 µg/mL"}
{"smiles": "CCC(C)n1ncn(-c2ccc(N3CCN(c4ccc(OC[C@H]5CO[C@](Cn6cncn6)(c6ccc(Cl)cc6Cl)O5)cc4)CC3)cc2)c1=O", "strain or isolate": "DUMC 251.86", "value": "0.016 µg/mL"}
{"smiles": "CNC(NC)c1ccc2cc(-n3cc(CCCO)nn3)c(=O)oc2c1", "strain or isolate": "ATCC 96806", "read by": "broth dilution", "value": ">750 µg/mL"}
{"smiles": "Cc1cc(NS(=O)(=O)c2ccc(N)cc2)no1", "strain or isolate": "IFM 40215", "value": "32 µg/mL"}
{"smiles": "CC[C@H]1/C=C(\\C)[C@H](O)[C@H](C)C[C@H](OC)[C@H]2O[C@@](O)(C(=O)C(=O)N3CCCC[C@H]3C(=O)O[C@H](/C(C)=C/[C@@H]3CC[C@@H](O)[C@H](OC)C3)[C@H](C)[C@@H](O)CC1=O)[C@H](C)C[C@@H]2OC", "strain or isolate": "C20F2", "value": "100 µg/mL"}
{"smiles": "C[C@@H](N1CCN(c2ccc(OCC(F)(F)C(F)F)cc2)C1=O)C(O)(Cn1cncn1)c1ccccc1F", "strain or isolate": "TIMM1855", "value": "0.03 µg/mL"}
{"smiles": "CCCCCCCCC(Cn1ccnc1)c1ccc(Cl)cc1", "value": "<1 µg/mL"}
{"smiles": "C[C@@H](n1ccn(-c2ccc(C(F)(F)F)cc2)c1=O)C(O)(Cn1cncn1)c1ccc(F)cc1F", "strain or isolate": "TIMM1855", "value": "0.06 µg/mL"}
{"smiles": "COc1ccc(-c2c(C#N)c(OC)nc3c2CSc2ccccc2-3)cc1", "strain or isolate": "Farwania", "value": "6 µg/mL"}
{"smiles": "Clc1ccc(C(Cc2ccccc2Cl)Cn2ccnc2)cc1", "value": "<1 µg/mL"}
{"smiles": "CCCCC(Cn1ccnc1)c1ccc(Cl)cc1", "value": "<1 µg/mL"}
{"smiles": "N#CC1=C(N)OC2=C(CSc3ccc(Cl)cc32)C1c1ccccc1", "strain or isolate": "93/V", "value": "50 µg/mL"}
{"smiles": "O[C@](Cn1cncn1)(Cn1cnc(/C=C/c2ccc(OCC(F)(F)C(F)F)cc2)n1)c1ccc(F)cc1F", "strain or isolate": "TIMM0354", "value": "0.39 µg/mL"}
{"smiles": "COc1ccc(-c2c(C#N)c(OC)nc3c2CSc2ccc(OC)cc2-3)cc1", "strain or isolate": "93/V", "value": "100 µg/mL"}
{"smiles": "CN(C)c1ccc(-c2sc3ccccc3c2CO)cc1", "strain or isolate": "Isolate 25", "value": "12.5 µg/mL"}
{"smiles": "C[C@@H](n1ncn(-c2ccc(OCC(F)(F)C(F)F)cc2)c1=O)[C@](O)(Cn1cncn1)c1ccc(F)cc1F", "strain or isolate": "DUMC 125.96", "value": "≤0.0313 µg/mL"}
{"smiles": "NCCNC(=O)C1=Nc2ccc(NC(=O)C3=Nc4ccc(C(=O)Nc5ccc6[nH]c(C(=O)NCCN)cc6c5)cc4C3)cc2C1", "strain or isolate": "Serotype D", "value": "8 µg/mL"}
{"smiles": "Cn1nc(Cc2ccc(Cl)cc2)c2ccccc2c1=O", "strain or isolate": "Clinical isolate (IM 000319)", "read by": "broth dilution", "value": "125 µg/mL"}
{"smiles": "CCCCCCCCC(Cn1ccnc1)c1ccc(F)cc1", "value": "<1 µg/mL"}
{"smiles": "C[C@@H](n1ccn(-c2ccc(OC(F)(F)C(F)F)cc2)c1=O)C(O)(Cn1cncn1)c1ccc(F)cc1F", "strain or isolate": "TIMM1740", "value": "0.016 µg/mL"}
{"smiles": "CCCCCCC(Cn1ccnc1)c1ccc(Br)cc1", "value": "<1 µg/mL"}
{"smiles": "Oc1ccccc1N=Cc1ccc2c(c1)OCO2", "strain or isolate": "ATCC 62066", "read by": "broth dilution", "value": "2.8 µg/mL"}
{"smiles": "CCCCCCCCC(Cn1ccnc1)c1c(Cl)cccc1Cl", "value": "10 µg/mL"}
{"smiles": "OCC1c2ccccc2SC1c1cc(Cl)ccc1O", "strain or isolate": "Isolate 25", "value": "6 µg/mL"}
{"smiles": "COc1nc2c(c(-c3ccc4c(c3)OCO4)c1C#N)CSc1ccccc1-2", "strain or isolate": "93/V", "value": "6 µg/mL"}
{"smiles": "Cc1nc(NCCCCNc2ccnc3cc(Cl)ccc23)nc(-c2ccccc2)c1C(=O)OC(C)C", "strain or isolate": "ATCC 24067", "value": "5.7 µg/mL"}
{"smiles": "N#CC(CC(=O)O)C(N)C(=O)O", "strain or isolate": "D49", "value": ">100 µg/mL"}
{"smiles": "COc1ccc2c(c1)-c1nc(OC)c(C#N)c(-c3ccc4c(c3)OCO4)c1CS2", "strain or isolate": "25", "value": "3 µg/mL"}
{"smiles": "Clc1ccc(C(Cc2ccc(Cl)cc2Cl)Cn2ccnc2)cc1", "value": "<1 µg/mL"}
{"smiles": "N#CC1=C(N)OC2=C(CSc3ccc(Cl)cc32)C1c1cccc2ccccc12", "strain or isolate": "25", "value": "25 µg/mL"}
{"smiles": "Oc1ccc(O)c(C=Nc2ccccc2O)c1", "strain or isolate": "LMM 820", "read by": "broth dilution", "value": "5.7 µg/mL"}
{"smiles": "C[C@@H]([C@@](O)(Cn1cncn1)c1ccc(F)cc1F)S(C)(=O)=O", "strain or isolate": "B4500 (AZOLE-S)", "value": ">1000 µM"}
{"smiles": "C[C@@H](c1nc(-c2ccc(C#N)cc2)cs1)[C@](O)(Cn1cnnc1)c1ccc(F)cc1F", "strain or isolate": "A26037", "value": "0.008 µg/mL"}

For reference, 4 entries again:

smiles | strain or isolate | read by | value
C[C@@H]1[C@H](O)[C@@H](C)/C=C/C=C/C=C/C=C/C=C/C=C/C=C/[C@H](O[C@@H]2O[C@H](C)[C@@H](O)[C@H](N)[C@@H]2O)C[C@@H]2O[C@](O)(C[C@@H](O)C[C@@H](O)[C@H](O)CC[C@@H](O)C[C@@H](O)CC(=O)O[C@H]1C)C[C@H](O)[C@H]2C(=O)O | Clinical isolate (IM 000319) | broth dilution | 0.13 µg/mL
CCCCCCCC(Cn1ccnc1)c1ccc(Br)cc1 | - | - | <1 µg/mL
Cn1nc(Cc2ccc(Cl)cc2)c2ccccc2c1=O | Clinical isolate (IM 000319) | broth dilution | 125 µg/mL
N#CC(CC(=O)O)C(N)C(=O)O | D49 | - | >100 µg/mL

Blank or dashed fields: not listed here.